Measured values from several laboratories, pooled; numbers as filed in NIAID ChemDB.

Common to all: growth or infection tests; species: HIV-1; cell line: MOLT-4; read-out: EC50

Neighbouring rows are from separate reports. Blank or dashed fields: not listed here. Two numbers with a dash give a range or band. ECn is the concentration giving n% inhibition of infection, replication or growth.

smiles	strain or isolate	method	value
Cc1ccnc2c1NC(=O)c1cccnc1N2C1CC1	HE	cytopathic effect	0.05 µg/mL
COc1cc(O)c2c(c1)C(=O)c1c(cc3c(c1O)-c1c(cc(C)c(C(=O)N[C@H](C)C(=O)O)c1O)[C@H](O[C@@H]1O[C@H](C)[C@H](O)[C@H](O[C@@H]4OC[C@@H](O)[C@H](O)[C@H]4O)[C@H]1O)[C@H]3O)C2=O	IIIB	syncytia	<10 µg/mL
O=S(=O)(O)c1cc(Nc2nc(Cl)nc(Nc3ccc(Nc4nc(Cl)nc(Nc5cc(S(=O)(=O)O)cc6cc(S(=O)(=O)O)c(N=Nc7ccccc7S(=O)(=O)O)c(O)c56)n4)cc3)n2)c2c(O)c(N=Nc3ccccc3S(=O)(=O)O)c(S(=O)(=O)O)cc2c1	IIIB		1–10 µM
CC(C)=CCN1Cc2cc(Cl)cc3[nH]c(=S)n(c23)C[C@@H]1C	HE	cytopathic effect	0.25 µg/mL
C[C@H](CCC(=O)NCCS(=O)(=O)O)[C@H]1CC[C@H]2[C@@H]3CC[C@@H]4C[C@H](O)CC[C@]4(C)C3CC[C@]12C	NDK	cytopathic effect	385 µg/mL
OCC(S)CS	IIIB-C-3	RT activity	<5 µg/mL
CC(C)(C)OC(=O)[C@@H]1CCCN1C[C@H](O)[C@H](Cc1ccccc1)NC(=O)[C@H](CC(N)=O)NC(=O)OCc1ccccc1	NDK	cytopathic effect	>100 µg/mL
COc1ccccc1N1CCN(c2c(F)cc3c(=O)c(C(=O)O)cn(C4CC4)c3c2OC(F)F)CC1	IIIB	cytopathic effect / MTT	0.091 µM
CC(C)(C)OC(=O)[C@@H]1CCCN1C[C@@H](O)[C@H](Cc1ccccc1)NC(=O)[C@H](CC(N)=O)NC(=O)OCc1ccccc1	NDK	cytopathic effect	74 µg/mL
Cc1cn([C@H]2C[C@@H](N=[N+]=[N-])[C@@H](CO)O2)c(=O)[nH]c1=O	IIIB	MTT	0.015 µM
COC(=O)[C@@H](C)NC(=O)c1c(C)cc2c(c1O)-c1c(cc3c(c1O)C(=O)c1cc(OC)cc(O)c1C3=O)[C@H](O)[C@H]2O[C@@H]1O[C@H](C)[C@H](N)[C@H](O[C@@H]2OC[C@@H](O)[C@H](O)[C@H]2O)[C@H]1O	IIIB	syncytia	<30 µg/mL
COC(=O)[C@@H](NC(=O)[C@@H](NC(=O)CC[C@H](O)[C@H](Cc1ccccc1)NC(=O)[C@H](C)NC(=O)[C@H](C)NC(=O)OCc1ccccc1)C(C)C)C(C)C	IIIB	p24	<4.2 µM
NOCc1c(F)cccc1Cl	IIIB	p24	>43.5 µg/mL
O=C1CN=C(c2ccc[nH]2)c2cc(Cl)ccc2N1	IIIB	cytopathic effect / MTT	0.067 µg/mL
Nc1ccn([C@@H]2O[C@H](CO)C[C@@H]2F)c(=O)n1	NDK	cytopathic effect	0.44 µg/mL
O=C(O)c1cn(C2CC2)c2c(OC(F)F)c(N3CCN(c4ncccn4)CC3)c(F)cc2c1=O	IIIB	cytopathic effect / MTT	0.39 µM
N[C@@H](CCC(=O)N[C@@H](CS)C(=O)NCC(=O)O)C(=O)O	IIIB	p24	>3000 µM
OC[C@@H]1[C@@H](O)[C@H](O)[C@@H](O)CN1CC#Cc1ccccc1	IIIB	syncytia	250 µM
c1cc(CN2CCNCCNCCNCC2)cc(CN2CCNCCNCCNCC2)c1	SF-2H	syncytia	0.15 µM
O[C@H]1[C@H](O)[C@@H](O)CN2CC[C@H](O)[C@H]12	IIIB	syncytia	44 µM
O=C1CC(O)(Cc2ccccc2)C(O)C(O)(Cc2ccccc2)C1	IIIB		<100 µM
Cn1cc(C(=O)O)c(=O)c2cc(F)c(N3CC=C(c4ccccc4)CC3)c(C(F)(F)F)c21	IIIB	cytopathic effect / MTT	0.05 µM
Nc1ccn([C@H]2CC[C@@H](CO)O2)c(=O)n1	IIIB	cytopathic effect / MTT	0.014 µM
Cc1ccc(S(=O)(=O)N[C@@H](CCCCN)C(=O)CCl)cc1	IIIB	RT activity	10 µM
OC[C@@H]1[C@@H](O)[C@H](O)[C@@H](O)CN1CCCc1ccccc1	IIIB	syncytia	16 µM
CCOP(=O)(N[C@@H](C)C(=O)OC)OC[C@H]1O[C@@H](n2cc(C)c(=O)[nH]c2=O)C[C@@H]1N=[N+]=[N-]	NDK	cytopathic effect	4.9 µg/mL
[N-]=[N+]=N[C@H]1C[C@H](n2cc(/C=C/c3ccccc3)c(=O)[nH]c2=O)O[C@@H]1CO			5 µg/mL
O[C@H]1[C@H](O)[C@@H](O)CN2CC[C@H](O)[C@H]12	NDK	cytopathic effect	5.5 µg/mL
CO[P@](=O)(c1cc(C)cc(/C=C/C#N)c1)c1c(C(N)=O)[nH]c2ccc(Cl)c(F)c12	IIIB		0.0007 µM
OC[C@@H]1[C@@H](O)[C@H](O)[C@@H](O)CN1CC=C(c1ccc(F)cc1)c1ccc(F)cc1	IIIB	syncytia	>210 µM
Nc1ccn([C@H]2CC[C@@H](CO)O2)c(=O)n1	NDK	cytopathic effect	<0.01 µg/mL
OC[C@@H]1[C@@H](O)[C@H](O)[C@@H](O)CN1C/C=C/c1ccccc1	IIIB	syncytia	8.7 µM
C1CNCCNCC(CCOCCOCCC2CNCCNCCCNCCNC2)CNCCNC1	IIIB	syncytia	58.3 µM
CC[C@H](C)[C@H](NC(=O)[C@@H](C[C@H](O)[C@H](CC1CCCCC1)NC(=O)OC(C)(C)C)C(C)C)C(=O)NCc1cccnc1	IIIB	p24	0.04–3 µM
OC[C@@H]1[C@@H](O)[C@H](O)[C@@H](O)CN1CCCC1CCCCC1	IIIB	syncytia	17 µM

The last 3 rows once more:

C1CNCCNCC(CCOCCOCCC2CNCCNCCCNCCNC2)CNCCNC1 ; strain or isolate: IIIB ; method: syncytia ; value: 58.3 µM
CC[C@H](C)[C@H](NC(=O)[C@@H](C[C@H](O)[C@H](CC1CCCCC1)NC(=O)OC(C)(C)C)C(C)C)C(=O)NCc1cccnc1 ; strain or isolate: IIIB ; method: p24 ; value: 0.04–3 µM
OC[C@@H]1[C@@H](O)[C@H](O)[C@@H](O)CN1CCCC1CCCCC1 ; strain or isolate: IIIB ; method: syncytia ; value: 17 µM